Compound potency records, mixed from different reports. Data source: NIAID ChemDB in PubChem.

Shared fields: whole-cell or culture tests; organism: Human herpesvirus 6

Rows are shuffled and stem from different studies. Inhibition is in % at the dose shown (toxicity tests: loss of growth or viability). An empty or dashed field is not shown. ECn is the concentration giving n% inhibition of infection, replication or growth.

| compound | conditions | measure | method | strain | cell line | tested at | value |
|---|---|---|---|---|---|---|---|
| O=C(O)CP(=O)(O)O | - | EC50 | cytopathic effect | U1102 (TYPE 6A) | HSB-2 | - | >51 µM |
| Nc1nc2c(ncn2CCC(CO)CO)c(=O)[nH]1 | 6 d | inhibition | antigen | 729 | HUMAN CORD BLOOD CELL | 5 µM | 0% |
| Nc1nc2c(ncn2CCC(CO)CO)c(=O)[nH]1 | - | EC50 | - | - | Human T-lymphoblasts | - | 72 µM |
| Nc1ncc2c(ncn2COC(CO)CO)n1 | - | EC50 | cytopathic effect | U1102 (TYPE 6A) | HSB-2 | - | 0.27 µM |
| Nc1nccc2c1ncn2C[C@@H](CO)OCP(=O)(O)O | - | EC50 | cytopathic effect | GS | HSB-2 | - | 1.4 µM |
| Nc1ncnc2c1ncn2C[C@@H](CO)OCP(=O)(O)O | - | EC50 | cytopathic effect | GS | HSB-2 | - | 3.1 µg/mL |
| Nc1nc2c(ncn2C[C@]2(CO)C[C@H]2CO)c(=O)[nH]1 | - | EC50 | - | - | Human T-lymphoblasts | - | 3.5 µM |
| Nc1nc(N)c2ncn(CCOCP(=O)(O)O)c2n1 | - | EC50 | antigen / flow cytometry | GS | HSB-2 | - | 9.1 µM |
| O=C(O)P(=O)(O)O | - | EC50 | cytopathic effect | U1102 (TYPE 6A) | HSB-2 | - | 63 µM |
| Nc1nc2c(ncn2CCC(CO)CO)c(=O)[nH]1 | - | EC50 | cytopathic effect | GS | HSB-2 | - | >400 µM |
| Nc1ncnc2c1ncn2C[C@H]1COP(=O)(O)CO1 | - | EC50 | cytopathic effect | U1102 (TYPE 6A) | HSB-2 | - | 109 µM |
| Nc1ccn(C[C@@H](CO)OCP(=O)(O)O)c(=O)n1 | - | EC50 | cytopathic effect | - | Human cord blood lymphocytes | - | 0.22 µM |
| Nc1ccn(C[C@@H](CO)OCP(=O)(O)O)c(=O)n1 | - | EC50 | cytopathic effect | GS | HSB-2 | - | 4.6 µg/mL |
| Nc1ncnc2c1ncn2C[C@H]1COP(=O)(O)CO1 | - | EC50 | antigen / flow cytometry | GS | HSB-2 | - | 32 µM |
| Nc1ncnc2c1ncn2C[C@@H](CO)OCP(=O)(O)O | - | EC50 | cytopathic effect | U1102 (TYPE 6A) | HSB-2 | - | 25 µM |

The last 2 rows once more:

Nc1ncnc2c1ncn2C[C@H]1COP(=O)(O)CO1 ; measure: EC50 ; method: antigen / flow cytometry ; strain: GS ; cell line: HSB-2 ; value: 32 µM
Nc1ncnc2c1ncn2C[C@@H](CO)OCP(=O)(O)O ; measure: EC50 ; method: cytopathic effect ; strain: U1102 (TYPE 6A) ; cell line: HSB-2 ; value: 25 µM